Results of unrelated studies side by side (data: NIAID ChemDB).

Common to all: tests on isolated targets; species: HIV-1; target: Protease; endpoint: IC50

Lines come from different laboratories, so protocols vary. Blank or dashed fields: not listed here. ICn is the concentration giving n% inhibition.

smiles	strain	method	setting	result
C[C@@H]1CC[C@]2(C(=O)O[C@@H]3O[C@H](CO)[C@@H](O)[C@H](O)[C@H]3O)CC[C@@H]3C(=CC[C@H]4[C@@]3(C)CC[C@H]3C(C)(C)[C@H](O)[C@H](O)C[C@]43C)[C@@H]2[C@]1(C)O		HPLC		>100 µM
Cc1c(O)cccc1C(=O)N(O)CC(=O)N1CCC[C@@H]1C(=O)NC(C)(C)C		HPLC		2.8 µM
COc1cccc(C)c1OCC(=O)N[C@@H](Cc1ccccc1)C[C@H](O)[C@H](Cc1ccccc1)NC(=O)O[C@H]1CO[C@H]2OCC[C@H]21				<0.0005 µM
CC1(C)CCC[C@](C)([C@H]2CC[C@]3(C)C2[C@H](O)CC2[C@@]4(C)CC[C@H](O)C(C)(C)C4/C(=C/O)C[C@]23C)O1		HPLC		>209.9 µM
CC[C@@H](C)[C@H](NC(=O)[C@@H]1CCCN1C(=O)[C@@H](O)[C@H](Cc1ccccc1)NC(=O)[C@H](CC(N)=O)NC(=O)CCc1ccccc1)C(=O)NCC1CCCCC1				<5 µM
CC[C@H](C)[C@H](NC(=O)[C@@H]1CCCN1C(=O)[C@H](O)[C@H](Cc1ccccc1)NC(=O)[C@H](CC(=O)O)NC(=O)[C@H](Cc1ccccc1)NC(=O)[C@@H](N)CO)C(=O)N[C@H](C(N)=O)C(C)C				0.1 µM
Cc1cccc(C)c1OCC(=O)N[C@@H](Cc1ccccc1)C[C@H](O)[C@H](Cc1ccccc1)NC(=O)O[C@H]1CO[C@H]2OCC[C@H]21				<0.0005 µM
CC(C)[C@H](NC(=O)[C@H](C)NC(=O)OCc1ccccc1)C(=O)N[C@@H](Cc1ccccc1)[C@@H](O)[C@H](O)[C@H](Cc1ccccc1)NC(=O)[C@@H](NC(=O)[C@H](C)NC(=O)OCc1ccccc1)C(C)C				0.004 µM
O=C(N[C@@H](Cc1ccccc1)C(=O)NCC[C@@H](CO)NC(=O)[C@H](Cc1ccccc1)NC(=O)OCC1c2ccccc2-c2ccccc21)OCC1c2ccccc2-c2ccccc21		HPLC		0.16 µM
CC(C)(C)NC(=O)[C@@H]1CSCN1C(=O)[C@@H](O)[C@H](Cc1ccccc1)NC(=O)[C@H](CS(C)(=O)=O)NC(=O)c1cc2ccccc2o1				<0.05 µM
CC[C@H](C)[C@H](NC(=O)[C@@H]1CCCN1C(=O)[C@H](O)[C@H](Cc1ccccc1)NC(=O)[C@H](CO)NC(=O)Cc1ccccc1)C(=O)N[C@H](C(N)=O)C(C)C				>10 µM
Cc1cc(C)c(OCC(=O)N[C@@H](Cc2ccccc2)C[C@H](O)[C@H](Cc2ccccc2)NC(=O)O[C@H]2CO[C@H]3OCC[C@H]32)c(C)c1N				<0.0005 µM
COc1cc(CN2C(=O)N(Cc3ccc(O)c(OC)c3)N(C(=O)COc3ccccc3)C[C@@H](O)[C@H]2Cc2ccccc2)ccc1O		fluorescence		<0.0005 µM
CC[C@@H](C)[C@H](NC(=O)[C@@H]1CCCN1C(=O)[C@@H](O)[C@H](CC1CCCCC1)NC(=O)[C@H](CC(N)=O)NC(=O)CCc1ccccc1)C(=O)N[C@H](C(N)=O)C(C)C				1.999 µM
CC(C)(C)NC(=O)[C@H]1CCCN1C(=O)[C@H](Cc1ccccc1)N(O)C(=O)[C@H](Cc1ccccc1)NC(=O)OCc1ccccc1		HPLC		0.48 µM
COc1cc(CN2C(=O)N(Cc3ccc(O)c(OC)c3)N(C(=O)CCc3ccc(OC)c(OC)c3)C[C@@H](O)[C@H]2Cc2ccccc2)ccc1O		fluorescence		<0.0005 µM
Cc1cc(C)c(OCC(=O)N[C@@H](Cc2ccccc2)C[C@H](O)[C@H](Cc2ccccc2)NC(=O)O[C@H]2CO[C@H]3OCC[C@H]32)c(C)c1				<0.0005 µM
CCCN([C@H](CO)CCC[C@H](C)NC(=O)[C@@H](NC(=O)OC)C(c1ccccc1)c1ccccc1)S(=O)(=O)c1ccc(CO)cc1		HPLC		0.002581 µM
Cc1ccnc(C)c1OCC(=O)N[C@@H](Cc1ccccc1)C[C@H](O)[C@H](Cc1ccccc1)NC(=O)O[C@H]1CO[C@H]2OCC[C@H]21				~0.0005 µM
Nc1n[nH]c2ccc(CN3C(=O)N(Cc4ccccc4)[C@H](Cc4ccccc4)[C@H](O)CN3C(=O)CCc3ccccc3)cc12		fluorescence	pH 7.0	~0.0005 µM
COC(=O)c1cc(O)c(O)c(O)c1		HPLC		>100 µM
CC(C)(C)NC(=O)[C@@H]1CCCN1C(=O)[C@H](O)[C@H](Cc1ccccc1)NC(=O)[C@H](CC(N)=O)NC(=O)OCc1ccccc1				>10 µM
CC(C)(C)NC(=O)[C@@H]1CCCN1C(=O)[C@@H](O)[C@H](Cc1ccccc1)NC(=O)[C@H](CC(N)=O)NC(=O)COC(c1cccc(Cl)c1)c1cccc(Cl)c1				<0.05 µM
CC(C)[C@H](NC(=O)c1nc2ccccc2[nH]1)C(=O)N[C@@H](Cc1ccccc1)[C@H](O)CNC[C@@H](O)[C@H](Cc1ccccc1)NC(=O)OC(C)(C)C		HPLC	pH 5.5	<10 µM
Cc1c(O)cccc1C(=O)N(O)CC(=O)N[C@@H](Cc1ccccc1)C(=O)NC(C)(C)C		HPLC		3.4 µM
O=C(Cc1ccccc1)N[C@@H](Cc1ccccc1)[C@H](O)CNC[C@@H](O)[C@H](Cc1ccccc1)NC(=O)Cc1ccccc1		HPLC	pH 5.5	>10 µM
Cc1c(O)cccc1C(=O)N(O)[C@@H](Cc1ccccc1)C(=O)N1CCC[C@@H]1C(=O)NC(C)(C)C		HPLC		1.02 µM
CC(C)C[C@H](NC(=O)[C@@H]1CCCN1C(=O)[C@@H](O)[C@H](Cc1ccccc1)NC(=O)[C@H](CC(N)=O)NC(=O)CCc1ccccc1)C(=O)N[C@H](C(N)=O)C(C)C				~5 µM
CN[C@H](C(=O)C[C@H](CCC[C@@H](CO)N(C(C)C)S(=O)(=O)c1ccc(N)cc1)C(F)(F)F)C(c1ccccc1)c1ccccc1		HPLC		0.000131 µM
Cc1cc(N)cc(C)c1SCC(=O)N[C@@H](Cc1ccccc1)C[C@H](O)[C@H](Cc1ccccc1)NC(=O)O[C@H]1CO[C@H]2OCC[C@H]21				<0.001 µM
C=CC(C)(C)c1[nH]c2ccccc2c1C1=C(O)C(=O)C(c2c(C(C)(C)C=C)[nH]c3ccccc23)=C(O)C1=O	WT			2.5 µM
C=CC[C@H](NC(=O)COc1cccc2ccccc12)C(=O)N[C@@H](Cc1ccccc1)[C@H](O)C(=O)N1CSC[C@H]1C(=O)NC(C)(C)C				<0.05 µM
CC(C)(C)CCN[C@@H](Cc1ccccc1)[C@H](O)CNC[C@@H](O)[C@H](Cc1ccccc1)NC(=O)OC(C)(C)C		HPLC	pH 5.5	>10 µM
C=C1C[C@]2(C)C(C[C@@H](O)C3[C@@H]([C@@]4(C)CCCC(C)(C)O4)CC[C@]32C)[C@@]2(C)CC[C@H](O)C(C)(C)C12		HPLC		>217.1 µM
CC(C)(C)NC(=O)[C@H]1N(C(=O)[C@@H](O)[C@H](Cc2ccccc2)NC(=O)[C@H](CSN)NC(=O)COc2cccc(-c3ccccc3)c2)CSC1(C)C				<0.05 µM
Cc1ccccc1OCC(=O)N[C@@H](Cc1ccccc1)C[C@H](O)[C@H](Cc1ccccc1)NC(=O)O[C@H]1CO[C@H]2OCC[C@H]21				<0.0005 µM
COC(=O)/C(O)=C1\C[C@@]2(C)C(C(=O)C[C@]3(C)C2C/C(=C\O)C2[C@@H]([C@@]4(C)CCCC(C)(C)O4)CC[C@]23C)C1(C)C		HPLC		>193 µM
CC(C)(C)NC(=O)[C@H]1N(C(=O)[C@@H](O)[C@H](Cc2ccccc2)NC(=O)[C@H](CC(N)=O)NC(=O)COc2cccc(Nc3ccccc3)c2)CSC1(C)C				<0.05 µM
Cc1cc([N+](=O)[O-])cc(C)c1OCC(=O)N[C@@H](Cc1ccccc1)C[C@H](O)[C@H](Cc1ccccc1)NC(=O)OC1CO[C@H]2OCC[C@@H]12				<0.0005 µM

The first 5 rows once more:

smiles,strain,method,setting,result
C[C@@H]1CC[C@]2(C(=O)O[C@@H]3O[C@H](CO)[C@@H](O)[C@H](O)[C@H]3O)CC[C@@H]3C(=CC[C@H]4[C@@]3(C)CC[C@H]3C(C)(C)[C@H](O)[C@H](O)C[C@]43C)[C@@H]2[C@]1(C)O,,HPLC,,>100 µM
Cc1c(O)cccc1C(=O)N(O)CC(=O)N1CCC[C@@H]1C(=O)NC(C)(C)C,,HPLC,,2.8 µM
COc1cccc(C)c1OCC(=O)N[C@@H](Cc1ccccc1)C[C@H](O)[C@H](Cc1ccccc1)NC(=O)O[C@H]1CO[C@H]2OCC[C@H]21,,,,<0.0005 µM
CC1(C)CCC[C@](C)([C@H]2CC[C@]3(C)C2[C@H](O)CC2[C@@]4(C)CC[C@H](O)C(C)(C)C4/C(=C/O)C[C@]23C)O1,,HPLC,,>209.9 µM
CC[C@@H](C)[C@H](NC(=O)[C@@H]1CCCN1C(=O)[C@@H](O)[C@H](Cc1ccccc1)NC(=O)[C@H](CC(N)=O)NC(=O)CCc1ccccc1)C(=O)NCC1CCCCC1,,,,<5 µM